Pooled drug test results. Numbers come from NIAID ChemDB, via PubChem.

Shared fields: whole-cell or culture tests; organism: Candida albicans; measure: MIC

Blank or dashed fields: not listed here. Rows are shuffled and stem from different studies.

SMILES	strain or isolate	value
c1ccc(-c2csc(N3N=C(c4cccs4)CC3c3ccccc3)n2)cc1	Clinical isolates	62.5 µg/mL
Cc1c(Sc2ccccc2)[n+](=O)c2cc(C(F)(F)F)ccc2n1[O-]	Clinical isolate 1	31.25 µg/mL
O=C(Nc1ccc(-c2nc3ccccc3[nH]2)cc1)c1cccc([N+](=O)[O-])c1	ATCC 10231	12.5 µg/mL
Cc1c(Sc2ccccc2)[n+](=O)c2cc(Cl)ccc2n1[O-]	Clinical isolate 11	31.25 µg/mL
O=C(Nc1ccc(-c2nc3ccccc3[nH]2)cc1)c1ccc(Br)cc1	ATCC 10231	50 µg/mL
CC1N=C(N)N=C(N)N1OCc1cccc2ccccc12	-	>240 µg/mL
Cc1ccc(-c2csc(N3N=C(c4cccs4)CC3c3ccc4c(c3)OCO4)n2)cc1	Clinical isolates	125 µg/mL
O=C(/C=C/c1cc(O)ccc1O)c1ccccc1	SDAU4	100 µg/mL
CCCCCCCON1C(N)=NC(N)=NC1(C)C	-	>60 µg/mL
O[C@](Cn1cncn1)(Cn1cnc(/C=C/c2ccc(OCC(F)(F)C(F)F)cc2)n1)c1ccc(F)cc1F	IFO 1594	0.024 µg/mL
CCOc1cc2c(cc1F)n([O-])c(C)c(S(=O)(=O)c1ccccc1)[n+]2=O	Clinical isolate 19	7.8 µg/mL
O=C(Nc1nc2ccc(NC(=O)[C@@H]3CCC[C@H](NCc4ccc5ccccc5c4)C3)cc2s1)C1CCCC1	IFM 47596 (AD)	3.13 µM
CO[C@@H](C)[C@H](N)C(=O)NS(=O)(=O)OC[C@H]1O[C@@H](CCn2nnc(-c3ccc(Oc4ccccc4)cc3)n2)[C@H](O)[C@@H]1O	ATCC 10231	>500 µg/mL
Cn1c(-c2cccc(N)c2)nc2ccccc21	ATCC 10231	6.25 µg/mL
CCC1N=C(N)N=C(N)N1OCc1ccc(Cl)c(Cl)c1	-	>250 µg/mL
Cc1c(S(=O)(=O)c2ccccc2)[n+](=O)c2cc(Cl)ccc2n1[O-]	Clinical isolate 9	31.25 µg/mL
C=C1C(=O)ON(C)C1c1ccc(C)cc1	-	37.5 µg/mL
CN(CCCC#CC(C)(C)C)c1cccc2c1CCC(=O)N2	Clinical isolate 11	31.25 µg/mL
CC1(C)N=C(N)N=C(N)N1OCCCCCCON1C(N)=NC(N)=NC1(C)C	-	>60 µg/mL
C[C@H]1[C@H](O)[C@@H](C)/C=C/C=C/C=C/C=C/C=C/C=C/C=C/[C@H](O[C@@H]2O[C@H](C)[C@@H](O)[C@H](N)[C@@H]2O)C[C@@H]2O[C@](O)(C[C@@H](O)C[C@@H](O)CC[C@H](O)[C@@H](O)C[C@@H](O)CC(=O)O[C@H]1C)C[C@H](O)[C@H]2C(=O)O	-	0.04 µg/mL
CC(=O)N1CCN(c2ccc(OC[C@@H]3CO[C@](Cn4ccnc4)(c4ccc5c(c4)SCC(=O)N5C)O3)cc2)CC1	-	500 µg/mL
OC(Cn1cncn1)(Cn1cncn1)c1ccc(F)cc1F	Clinical isolates	0.904 µg/mL
CCCCCCCCOc1ccc(CON2C(N)=NC(N)=NC2(C)C)cc1	-	7.5 µg/mL
O=[N+]([O-])c1ccc(C2CC(c3cccs3)=NN2c2nc(-c3ccc(Cl)cc3)cs2)cc1	Clinical isolates	125 µg/mL
CC1(C)N=C(N)N=C(N)N1OCCCCCCCCCCON1C(N)=NC(N)=NC1(C)C	-	30 µg/mL
COc1ccc(-c2csc(N3N=C(c4cccs4)CC3c3ccc([N+](=O)[O-])cc3)n2)cc1	Clinical isolates	125 µg/mL
Cc1ccc(C(C)C)c(O)c1	M1	0.16 µg/mL
Cc1c(O)cccc1C(=O)N[C@@H](CSc1ccccc1)[C@H](O)CN1C[C@H]2CCCC[C@H]2C[C@H]1C(=O)NC(C)(C)C	I133A	64 µg/mL
CC(CCCCCCCCCCCON1C(N)=NC(N)=NC12CCCCC2)c1ccccc1	-	1.9 µg/mL
Cc1ccc(-c2csc(N3N=C(c4cccs4)CC3c3ccccc3)n2)cc1	Clinical isolates	62.5 µg/mL
O=C(Nc1ccc(-c2nc3ccccc3[nH]2)cc1)c1cc([N+](=O)[O-])ccc1F	ATCC 10231	25 µg/mL
CC[C@]1(O)C[C@H]2CN(CCc3c([nH]c4ccccc34)[C@@](C(=O)OC)(c3cc4c(cc3OC)N(C=O)[C@H]3[C@@](O)(C(=O)OC)[C@H](OC(C)=O)[C@]5(CC)C=CCN6CC[C@]43[C@@H]65)C2)C1	ATCC28366	>500 µg/mL
O=[N+]([O-])c1ccc(C2CC(c3cccs3)=NN2c2nc(-c3ccccc3)cs2)cc1	Clinical isolates	125 µg/mL
CC(CCCCCCCCCON1C(N)=NC(N)=NC12CCCCC2)c1ccccc1	-	30 µg/mL

Repeating the first 4 entries:

| SMILES | strain or isolate | value |
|---|---|---|
| c1ccc(-c2csc(N3N=C(c4cccs4)CC3c3ccccc3)n2)cc1 | Clinical isolates | 62.5 µg/mL |
| Cc1c(Sc2ccccc2)[n+](=O)c2cc(C(F)(F)F)ccc2n1[O-] | Clinical isolate 1 | 31.25 µg/mL |
| O=C(Nc1ccc(-c2nc3ccccc3[nH]2)cc1)c1cccc([N+](=O)[O-])c1 | ATCC 10231 | 12.5 µg/mL |
| Cc1c(Sc2ccccc2)[n+](=O)c2cc(Cl)ccc2n1[O-] | Clinical isolate 11 | 31.25 µg/mL |